Measured values from several laboratories, pooled; numbers as filed in NIAID ChemDB.

All rows: growth or infection tests; agent: HIV-1; method: luciferase; read-out: EC50

ECn: concentration that inhibits the pathogen or its effect by n%. Conditions beyond the fields shown may differ between rows. An empty or dashed field is not shown.

| SMILES | strain | mutations | cells | value |
|---|---|---|---|---|
| CC(C)(C)OC(=O)Nc1cccc(C(=O)N2CCN(C(=O)C(=O)c3c[nH]c4cccc(F)c34)CC2)c1 | - | - | HeLa + HELA CD4+/CCR5 | <10 µM |
| COc1cnc(-c2cnccn2)c2[nH]cc(C(=O)C(=O)N3CCC(=C(c4ccccc4)c4ccc(F)cc4)CC3)c12 | - | - | HeLa | <1 µM |
| COc1ccc(N(C)C(=O)[C@H](Cc2ccccc2)NC(=O)NS(=O)(=O)N[C@@H](Cc2ccccc2)c2nnc(SC)o2)cc1 | NL4-3 | - | MT-2 | 6.78 µM |
| COC(=O)c1cccc2c(C(=O)C(=O)N3CCN(C(=O)c4ccccc4)CC3C(F)(F)F)c[nH]c12 | - | - | HeLa + HELA CD4+/CCR5 | <10 µM |
| N#CC(=C1CCN(C(=O)C(=O)c2c[nH]c3c(-n4ccc(N)n4)ncc(F)c23)CC1)c1ccccc1 | - | - | HeLa | <1 µM |
| O=Cc1ccc(F)c2c(C(=O)C(=O)N3CCN(C(=O)c4ccccc4)CC3)c[nH]c12 | - | - | HeLa + HELA CD4+/CCR5 | <10 µM |
| CN(C(=O)[C@H](Cc1cc(F)cc(F)c1)NC(=O)NS(=O)(=O)N[C@@H](Cc1cc(F)cc(F)c1)C(=O)N(C)c1ccc(C(F)(F)F)nc1)c1ccc(C(F)(F)F)nc1 | NL4-3 | - | MT-2 | 0.47 µM |
| COC(=O)c1ccc(F)c2c(C(=O)C(=O)N3CCN(C(=O)c4ccccc4)C[C@H]3C)c[nH]c12 | - | - | HeLa + HELA CD4+/CCR5 | <10 µM |
| CCCN(C(=O)[C@H](Cc1cc(F)cc(F)c1)NC(=O)CS(=O)(=O)N[C@@H](Cc1cc(F)cc(F)c1)C(=O)N(CCC)c1ccc2nccnc2c1)c1ccc2nccnc2c1 | NL4-3 | - | MT-2 | 14.97 µM |
| C[C@@H]1CN(C(=O)c2ccccc2)CCN1C(=O)C(=O)c1c[nH]c2c([N+](=O)[O-])cccc12 | - | - | HeLa + HELA CD4+/CCR5 | <10 µM |
| N#CC(=C1CCN(C(=O)C(=O)c2c[nH]c3c(-n4cncn4)ncc(F)c23)CC1)c1ccccc1 | - | - | HeLa | <1 µM |
| C=CCCN(C(=O)[C@H](Cc1cc(F)cc(F)c1)NC(=O)NS(=O)(=O)N[C@@H](Cc1cc(F)cc(F)c1)C(=O)N(CCC=C)c1ccc(OC)cc1)c1ccc(OC)cc1 | NL4-3 | - | MT-2 | 0.73 µM |
| Nc1cccc(C(=O)N2CCN(C(=O)C(=O)c3c[nH]c4ccccc34)CC2)c1 | - | - | HeLa + HELA CD4+/CCR5 | <10 µM |
| COc1ncc(OC)c2c(C(=O)C(=O)N3CCC(=C(c4ccccc4)c4cccc(F)c4)CC3)c[nH]c12 | - | - | HeLa | <1 µM |
| Cc1cc(C#N)cc(C)c1Oc1nc(Nc2ccc(C#N)cc2)nc(N)c1Br | 94ug114.1.6 | - | HEK293T | 2.47 nM |
| CCc1ncc(N(C)C(=O)[C@H](Cc2cc(F)cc(F)c2)NC(=O)NS(=O)(=O)N[C@@H](Cc2cc(F)cc(F)c2)C(=O)N(C)c2cnc(CC)nc2)cn1 | NL4-3 | - | MT-2 | 16.03 µM |
| Cc1cc(S(N)(=O)=O)ccc1NC(=O)COc1ccc(Cl)cc1C(=O)c1cc(F)cc(C(F)(F)F)c1 | IIIB | RT-P225H | HELA MAGI | 0.0007 µM |
| COc1ncc(OC)c2c(C(=O)C(=O)N3CCC(=C(C#N)c4coc5ccccc45)CC3)c[nH]c12 | - | - | HeLa | <1 µM |
| COc1ccc(N(C)C(=O)C(Cc2ccccc2)NC(=O)C(C)(C)CC(=O)N[C@H](Cc2ccccc2)C(=O)N(C)c2ccc(OC)cc2)cc1 | NL4-3 | - | MT-2 | 4.96 µM |

For reference, 2 entries again:

O=Cc1ccc(F)c2c(C(=O)C(=O)N3CCN(C(=O)c4ccccc4)CC3)c[nH]c12 ; cells: HeLa + HELA CD4+/CCR5 ; value: <10 µM
COc1cnc(-c2cnccn2)c2[nH]cc(C(=O)C(=O)N3CCC(=C(c4ccccc4)c4ccc(F)cc4)CC3)c12 ; cells: HeLa ; value: <1 µM